## RC index of single-base changes in HIV-1 Nef

Protein: Nef of HIV-1 NL4-3, numbered from its first residue.
From base 9076 on, changes also alter the 3' U3.
Effects on overlapping genes or RNA elements are not listed.

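Random point mutant libraries of HIV-1 NL4-3, one for each of seven fragments, were passaged in CEM T lymphocytes. Sequencing gave the RC index: frequency after two rounds over frequency in the input plasmid.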

RC index: lower means poorer replication; rough cut-offs are 0.1 (lethal) and 0.2 (tolerated).
A change reads original residue, position, new residue.
Clones carried about five changes per kilobase, which can drag down the index of neutral changes.
Nucleotide positions follow pNL4-3.
The authors read an index above 1 as above wild type (1.9% of all changes in the genome).

{"mutation": "K4T", "base": "A8797C", "RC index": 1.24}
{"mutation": "W5C", "base": "G8801C", "RC index": 6.21}
{"mutation": "S8R", "base": "T8810G", "RC index": 0.526}
{"mutation": "I11N", "base": "T8818A", "RC index": 0.0359}
{"mutation": "W13R", "base": "T8823C", "RC index": 0.364}
{"mutation": "E18G", "base": "A8839G", "RC index": 0.0671}
{"mutation": "R19S", "base": "A8843T", "RC index": 0.0186}
{"mutation": "V30G", "base": "T8875G", "RC index": 0.0454}
{"mutation": "A49E", "base": "C8932A", "RC index": 0.590}
{"mutation": "N51T", "base": "A8938C", "RC index": 0.809}
{"mutation": "A53T", "base": "G8943A", "RC index": 0.791}
{"mutation": "E59D", "base": "A8963T", "RC index": 1.10}
{"mutation": "A60T", "base": "G8964A", "RC index": 1.08}
{"mutation": "E64V", "base": "A8977T", "RC index": 0.785}
{"mutation": "G67S", "base": "G8985A", "RC index": 0.591}
{"mutation": "P69T", "base": "C8991A", "RC index": 0.463}
{"mutation": "R77I", "base": "G9016T", "RC index": 0.649}
{"mutation": "D86N", "base": "G9042A", "RC index": 1.33}
{"mutation": "D86Y", "base": "G9042T", "RC index": 0.297}
{"mutation": "L100I", "base": "C9084A", "RC index": 0.598}
{"mutation": "L100Q", "base": "T9085A", "RC index": 0.828}
{"mutation": "Q104P", "base": "A9097C", "RC index": 0.470}
{"mutation": "Q104R", "base": "A9097G", "RC index": 1.21}
{"mutation": "W113S", "base": "G9124C", "RC index": 0.865}
{"mutation": "I114V", "base": "A9126G", "RC index": 1.04}
{"mutation": "T117P", "base": "A9135C", "RC index": 0.892}
{"mutation": "Q118H", "base": "A9140T", "RC index": 0.765}
{"mutation": "D123N", "base": "G9153A", "RC index": 0.666}
{"mutation": "W124R", "base": "T9156C", "RC index": 0.437}
{"mutation": "P129L", "base": "C9172T", "RC index": 0.717}
{"mutation": "L137V", "base": "C9195G", "RC index": 1.84}
{"mutation": "C142F", "base": "G9211T", "RC index": 0.166}
{"mutation": "P147T", "base": "C9225A", "RC index": 0.977}
{"mutation": "V153L", "base": "G9243C", "RC index": 0.578}
{"mutation": "V168E", "base": "T9289A", "RC index": 0.752}
{"mutation": "V180L", "base": "G9324T", "RC index": 0.855}
{"mutation": "R188L", "base": "G9349T", "RC index": 0.840}
{"mutation": "A190P", "base": "G9354C", "RC index": 0.862}
{"mutation": "F191L", "base": "T9359A", "RC index": 0.392}
{"mutation": "P200Q", "base": "C9385A", "RC index": 0.581}
{"mutation": "F203S", "base": "T9394C", "RC index": 0.632}
{"mutation": "F203C", "base": "T9394G", "RC index": 0.610}
{"mutation": "K204Q", "base": "A9396C", "RC index": 0.973}

Data from the supplement of Al-Mawsawi et al. 2014, doi:10.1186/s12977-014-0124-6.